Data: patent US8002614B2, “Microbiocidal control in the processing of meat-producing four-legged animals” (priority 2005, dated 2011)

Test: Effect of biocide solutions on colour of raw beef on contact
Settings: ca. 25 g meat in ca. 30 g solution, 5 minutes, rinsed and patted dry
[1] = approximately 100 ppm expressed as bromine

For `CC1(C)C(=O)N(Cl)C(=O)N1Br` [BCDMH, N,N′-bromochloro-5,5-dimethylhydantoin], the “Observations (meat colour vs deionized water control)” value [1] was “Lighter than the control”.

In the case of `CC1(C)C(=O)N(Br)C(=O)N1Br` [DBDMH, 1,3-dibromo-5,5-dimethylhydantoin], the “Observations (meat colour vs deionized water control)” value [1] is reported as “More red than the control”.

For `CC(O)C(=O)O` (stereo not drawn) [Lactic acid], the “Observations (meat colour vs deionized water control)” value (2% solution) was “Some browning occurred on sides of the”.
